This note sets out measurements from ChEMBL document CHEMBL4765236, “Insights into the Antimicrobial Activity and Cytotoxicity of Engineered α-Helical Peptide Amphiphiles” (J Med Chem, 2016).

The subject of this assay is Escherichia coli. Nature of the assay: Antibacterial activity against Escherichia coli O157:H7 CICC 21530 assessed as bacterial growth inhibition incubated for 18 to 24 hrs by microtiter broth dilution method. As to conditions: time 18-24 hrs. The format is functional. In a few lines:
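Log-phase bacteria grown at 37 °C in MHB, diluted to 10^5 CFU/mL, mixed 1:1 with serial peptide dilutions (peptide diluted in 0.01% acetic acid, 0.2% BSA); 37 °C for 18-24 h. MIC read by OD492 as lowest concentration giving no growth; mean of 3-5 independent experiments.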
(In general: In broth dilution the organism is exposed to a series of concentrations in liquid medium.)

Converted amounts (≈) assume the structure as drawn.

For `CC[C@H](C)[C@H](NC(=O)CN)C(=O)NCC(=O)N[C@@H](C)C(=O)N[C@H](C(=O)N[C@@H](CC(C)C)C(=O)N[C@@H](CCCCN)C(=O)N[C@H](C(=O)N[C@@H](CC(C)C)C(=O)N[C@H](C(=O)N[C@H](C(=O)NCC(=O)N[C@@H](CC(C)C)C(=O)N1CCC[C@H]1C(=O)N[C@@H](C)C(=O)N[C@@H](CC(C)C)C(=O)N[C@H](C(=O)N[C@@H](CO)C(=O)N[C@@H](Cc1c[nH]c2ccccc12)C(=O)N[C@H](C(=O)N[C@@H](CCCCN)C(=O)N[C@@H](CCCNC(=N)N)C(=O)N[C@@H](CCCCN)C(=O)N[C@@H](CCCNC(=N)N)C(=O)N[C@@H](CCC(N)=O)C(=O)N[C@@H](CCC(N)=O)C(N)=O)[C@@H](C)CC)[C@@H](C)CC)[C@@H](C)O)[C@@H](C)O)C(C)C)C(C)C` [MELITTIN], the MIC – broadly, the lowest concentration that inhibits growth of the organism – was 0.35 µM (≈ 0.996 µg/mL).
